Results of unrelated studies side by side (data: NIAID ChemDB).

MIC bound comes from a single tested concentration. ICn is the concentration giving n% inhibition. Percent inhibition refers to the dose given; in toxicity tests it is the harm to the cells. Blank or dashed fields: not listed here. Conditions beyond the fields shown may differ between rows.

compound | measure | strain or isolate | dose | read by | protein | test | species | value
COc1c2occc2c([N+](=O)[O-])c2ccc(=O)oc12 | MIC bound | H37Rv | - | resazurin | - | culture | Mycobacterium tuberculosis | >6.25 µg/mL
CC(=O)N1c2ccc([N+](=O)[O-])cc2S(=O)c2cc([N+](=O)[O-])ccc21 | MIC | H37Rv | - | - | - | culture | Mycobacterium tuberculosis | >100 µg/mL
CO[C@@H](C)[C@@](O)(C(=O)OCC1=CCN2CCC[C@@H]12)C(C)C | MIC bound | H37Rv | - | BACTEC | - | culture | Mycobacterium tuberculosis | >12.8 µg/mL
COc1ccc(N2CCN(c3cncc(-c4ccc(C)cc4)n3)CC2)cc1OC | inhibition | - | 1 µM | - | UL97 kinase | target | Cytomegalovirus | <50%
Cc1ccc2ccccc2c1[N+](=O)[O-] | MIC | H37Rv | - | - | - | culture | Mycobacterium tuberculosis | 50 µg/mL
O=C(O)c1ccccc1 | inhibition | H37Rv | 12.5 µg/mL | BACTEC | - | culture | Mycobacterium tuberculosis | 0%
Fc1ccc(N2CCCCC2)c(NC(=S)c2ccncc2)c1 | inhibition | - | 10 µM | kinase activity | DMPK | host protein | - | -1%
COc1cc2c(c([N+](=O)[O-])c1)NC(=O)CC(C)S2 | MIC bound | H37Rv | - | BACTEC | - | culture | Mycobacterium tuberculosis | >12.5 µg/mL
O=C(O)CC1(CC(=O)Nc2ccc(I)cc2)OCOC1=O | MIC | H37Rv | - | - | - | culture | Mycobacterium tuberculosis | 25 µg/mL
COc1ccc(N2CCN(c3cncc(-c4ccc(CN)cc4)n3)CC2)cc1OC | inhibition | - | 10 µM | - | UL97 kinase | target | Cytomegalovirus | >15%
O=C(O)CCCCCCCCCCC1C=CCC1 | inhibition | H37Rv | 12.5 µg/mL | BACTEC | - | culture | Mycobacterium tuberculosis | 27%
Cc1cccc(N2CCN(c3cncc(-c4csc5ccccc45)n3)CC2C)c1 | IC50 | - | - | - | UL97 kinase | target | Cytomegalovirus | <100 µM
CCOC(=O)C1C(C)NC(C)C(C(=O)OCC)C1O.Cl | MIC | H37Rv | - | - | - | culture | Mycobacterium tuberculosis | >100 µg/mL
CC(=O)c1cccc(-c2cncc(N3CCN(c4cccc(C)c4C)CC3)n2)c1 | inhibition | - | 10 µM | - | UL97 kinase | target | Cytomegalovirus | >15%
O=C(O)c1cc(Cl)ccc1O | MIC | H37Rv | - | - | - | culture | Mycobacterium tuberculosis | 50 µg/mL
COc1ccccc1N1CCN(c2cncc(-c3ccc(C(C)(C)C)cc3)n2)CC1 | IC50 | - | - | - | UL97 kinase | target | Cytomegalovirus | <100 µM
Nc1nc(=O)n(CC(O)CO)s1 | MIC bound | H37Rv | - | BACTEC | - | culture | Mycobacterium tuberculosis | >12.5 µg/mL
COc1ccc(N)cc1OC | MIC | H37Rv | - | - | - | culture | Mycobacterium tuberculosis | 100 µg/mL
CN1C(=O)C(N=Nc2ccc([N+](=O)[O-])cc2)SC1=S | MIC bound | H37Rv | - | BACTEC | - | culture | Mycobacterium tuberculosis | >12.8 µg/mL
COc1ccc(-c2cncc(N3CCN(c4ccc(C)cc4)CC3)n2)cc1F | IC50 | - | - | - | UL97 kinase | target | Cytomegalovirus | <100 µM
CCc1cc(C(N)=O)c2ccccc2n1 | MIC | H37Rv | - | - | - | culture | Mycobacterium tuberculosis | 50 µg/mL